These are literature values, as cited in patent US20210147498A1, “USE OF GRAM-NEGATIVE LYSIN-ANTIMICROBIAL PEPTIDE (AMP) POLYPEPTIDE CONSTRUCTS IN PULMONARY SURFACTANT AND BIOFILMS” (priority 2018, published 2021).

SMILES strings stand for the structures.

For this series the following is noted: D'Lima et al., 2012; cited from earlier work.

For the molecule `O=C(O)c1cn(C2CC2)c2cc(N3CCNCC3)c(F)cc2c1=O` [Ciprofloxacin], the “increase of Ciprofloxacin MIC over a 21 day serial passage” value is reported as “up to 32 fold”.
